Results published in US20220259551A1, “METHODS OF OPTIMIZED EUGLENA FERMENTATION USING ENGINEERED TANK DESIGN” (NOBLEGEN INC., priority 2019, published 2022).

Tested on: Euglena gracilis Z
Experiment: Effect of organic acids, with or without glucose, on Euglena growth in shake flasks (Example 9)
Assay type: cell-based
Conditions: for levels of organic acids in the media: low acid concentrations (0.0005-0.05 g/L), end of 48 h
[1] = higher acid concentrations (2-5 g/L), incubation 0 h
[2] = higher acid concentrations (2-5 g/L), incubation 48 h
[3] = higher acid concentrations (2-5 g/L), incubation 120 h
[4] = lower acid concentrations (0.0005-0.05 g/L), incubation 0 h
[5] = lower acid concentrations (0.0005-0.05 g/L), incubation 48 h

O=C(O)CCC(=O)O [Succinate acid only]
Succinate conc. in media [1]: 5.17 g/L | Succinate conc. in media [2]: 0.61 g/L | Succinate conc. in media [3]: 0.51 g/L | Succinate conc. in media [4]: 0.5328 g/L | Succinate conc. in media [5]: 0.5042 g/L

O=C(O)CC(O)C(=O)O (stereo not shown) [Malate only]
Malate conc. in media [1]: 4.78 g/L | Malate conc. in media [2]: 0.73 g/L | Malate conc. in media [3]: 0.90 g/L | Malate conc. in media [4]: 0.049 g/L | Malate conc. in media [5]: 0 g/L

CC(=O)C(=O)O [Pyruvate only]
Pyruvate conc. in media [1]: 1.31 g/L | Pyruvate conc. in media [2]: 0.00 g/L | Pyruvate conc. in media [3]: 0.00 g/L | Pyruvate conc. in media [4]: 0.06 g/L | Pyruvate conc. in media [5]: 0 g/L

O=C[C@H](O)[C@@H](O)[C@H](O)[C@H](O)CO [Glucose (Control)]
Fumarate conc. in media [1]: 0.00 g/L | Lactate conc. in media [1]: 0.01 g/L | Malate conc. in media [1]: 0.00 g/L | Pyruvate conc. in media [1]: 0.00 g/L | Succinate conc. in media [1]: 0.43 g/L | Fumarate conc. in media [2]: 0.00 g/L | Lactate conc. in media [2]: 0.00 g/L | Malate conc. in media [2]: 0.03 g/L | Pyruvate conc. in media [2]: 0.00 g/L | Succinate conc. in media [2]: 0.65 g/L | Fumarate conc. in media [3]: 0.00 g/L | Lactate conc. in media [3]: 0.00 g/L | Malate conc. in media [3]: 0.00 g/L | Pyruvate conc. in media [3]: 0.00 g/L | Succinate conc. in media [3]: 0.72 g/L | Fumarate conc. in media [4]: 0.0003 g/L | Lactate conc. in media [4]: 0.01 g/L | Malate conc. in media [4]: 0 g/L | Pyruvate conc. in media [4]: 0 g/L | Succinate conc. in media [4]: 0.4884 g/L | Fumarate conc. in media [5]: 0.0039 g/L | Lactate conc. in media [5]: 0 g/L | Malate conc. in media [5]: 0.0757 g/L | Pyruvate conc. in media [5]: 0 g/L | Succinate conc. in media [5]: 0.6744 g/L

CC(O)C(=O)O (stereo not shown) [Lactic acid only]
Lactate conc. in media [1]: 3.67 g/L | Lactate conc. in media [2]: 0.00 g/L | Lactate conc. in media [3]: 0.02 g/L | Lactate conc. in media [4]: 0.05 g/L | Lactate conc. in media [5]: 0 g/L

CC(=O)C(=O)O [pyruvate, pyruvic acid]
levels of organic acids in the media: not detectable

CC(O)C(=O)O (stereo not shown) [lactic acid]
levels of organic acids in the media: not detectable

O=C(O)/C=C/C(=O)O [Fumarate only]
Fumarate conc. in media [1]: 3.46 g/L | Fumarate conc. in media [2]: 0.91 g/L | Fumarate conc. in media [3]: 1.55 g/L | Fumarate conc. in media [4]: 0.0007 g/L | Fumarate conc. in media [5]: 0.0003 g/L
